From PMC6042199, “Inhibitory effects against α-glucosidase and α-amylase of the flavonoids-rich extract from Scutellaria baicalensis shoots and interpretation of structure–activity relationship of its eight flavonoids by a refined assign-score method” (Chemistry Central Journal, 2018)

Tested on: yeast α-glucosidase from Saccharomyces cerevisiae
Experiment: α-glucosidase inhibitory effect (pNPG, AUC of absorbance at 405 nm)
Format: biochemical
Conditions: Contribution = [Ei/E0] × C × 100
Protocol: All solvents (analytical grade) were bought from Beijing Chemical Factory, and purified water was from a mili-Q system (Millipore, Billerica, MA).
α-Glucosidase inhibitory effect was assayed as reported by Zhang et al.. […] Then, 30 μL pNPG solution (2 mM pNPG in 0.1 mM phosphate buffer) was added quickly to initiate the enzyme reaction. Absorbance was monitored at 405 nm every 15 min for 2 h using a microplate reader (Tecan infinite 200, Swiss).

| Compound | Contribution to the overall enzyme inhibitory effect of the extract, α-glucosidase [%] |
| --- | --- |
| O=C(O)[C@H]1O[C@@H](Oc2cc3oc(-c4ccccc4)cc(=O)c3c(O)c2O)[C@H](O)[C@@H](O)[C@@H]1O [Baicalin, baicalin] | 4.65 ± 0.12 |
| O=c1cc(-c2ccc(O)cc2)oc2cc(O)cc(O)c12 [Apigenin] | 8.32 ± 0.56 |
| O=c1cc(-c2ccccc2)oc2cc(O)cc(O)c12 [Chrysin, chrysin] | 6.20 ± 0.08 |
| O=C(O)[C@H]1O[C@@H](Oc2cc(O)c3c(=O)cc(-c4ccc(O)cc4)oc3c2)[C@H](O)[C@@H](O)[C@@H]1O [Apigenin-7-O-G, apigenin-7-O-glucuronide] | 2.77 ± 0.05 |
| O=C(O)[C@H]1O[C@@H](Oc2cc(O)c3c(=O)cc(-c4ccccc4)oc3c2)[C@H](O)[C@@H](O)[C@@H]1O [Chrysin-7-O-G, chrysin-7-O-glucuronide] | 1.01 ± 0.03 |
